Source: patent publication US7371755B1 (Biota Scientific Management Pty Ltd., priority 1999, dated 2008)

Columns and labels:
Settings in all cases: selectivity index = CC50 or MTC divided by EC50
HRV type 1A = test: Inhibition of viral cytopathic effect (CPE), HRV type 1A in MRC-5 cells; assay type: cell-based, human rhinovirus
HRV type 2 = test: Inhibition of viral cytopathic effect (CPE), HRV type 2 in KB cells; assay type: cell-based, human rhinovirus
Echo 21 = test: Activity against Echo 21 in mammalian cell culture assay; assay type: cell-based
Description: (§1) Activity against Enteroviruses in Mammalian Cell Culture Assays Compounds 50 and 56 of the Invention were Tested Against Other Picornaviruses Using Similar cell based assays to those described in example 30 above and the results are shown in Table 6 below: […]

Coxsackie A21 = test: Activity against Coxsackie A21 in mammalian cell culture assay; assay type: cell-based
Description: as §1

Enterovirus 70 = test: Activity against Enterovirus 70 in mammalian cell culture assay; assay type: cell-based
Description: as §1

| Structure (SMILES) | Activity on Rhinovirus Type 1A SI (HRV type 1A) | Activity on Rhinovirus Type 2 SI (HRV type 2) | Activity on Echo 21 SI (Echo 21) | Activity on Coxsackie A21 SI (Coxsackie A21) | Activity on Enterovirus 70 SI (Enterovirus 70) |
| --- | --- | --- | --- | --- | --- |
| COCc1cc(CCCOc2c(C)cc(-c3ccccc3)cc2C)on1 [Compound 6, 3-(methoxymethyl)-5-[3-[2,6-dimethyl-4-phenylphenoxy]-propyl]-isoxazole] | >320 | >1000 | – | – | – |
| Cc1cc(-c2ccccc2)cc(C)c1OCCCc1cc(COCCOCCOCCO)no1 [Compound 8] | 38.61 | 5000 | – | – | – |
| Cc1cc(-c2ccccc2)cc(C)c1OCCCc1cc(COCCOCCOCCOCCOCCOCCO)no1 [Compound 10] | – | 50 | – | – | – |
| CC(=O)NCCOCCOCc1cc(CCCOc2c(C)cc(-c3ccccc3)cc2C)on1 [Compound 19] | 6.66 | >400 | – | – | – |
| Cc1cc(-c2noc(C(F)(F)F)n2)cc(C)c1OCCCc1cc(COCCOCCOCCO)no1 [Compound 24] | 25.71 | >30 | – | – | – |
| Cc1cc(-c2ccccc2)cc(C)c1OCCCc1cc(COCCOCCOCCOCc2cc(CCCOc3c(C)cc(-c4ccccc4)cc3C)on2)no1 [Compound 32, 1,8-bis-[5-[3-[2,6-dimethyl-4-phenylphenoxy]-propyl]-isoxazolyl-3-methyloxy]-3,6-dioxaoctane] | >156.32 | >50 | – | – | – |
| Cc1cc(-c2ccccc2)cc(C)c1OCCCc1cc(COCCOCCOCCOCCOCCOCCOCc2cc(CCCOc3c(C)cc(-c4ccccc4)cc3C)on2)no1 [Compound 34] | – | >5 | – | – | – |
| Cc1cc(-c2ccccc2)cc(C)c1OCCCc1cc(COCCOCCOCCOCCNC(=O)Nc2ccc(Cc3ccc(NC(=O)NCCOCCOCCOCCOCc4cc(CCCOc5c(C)cc(-c6ccccc6)cc5C)on4)cc3)cc2)no1 [Compound 48] | 7.75 | >8 | – | – | – |
| Cc1cc(-c2noc(C(F)(F)F)n2)cc(C)c1OCCCc1cc(COCCOCCOCc2cc(CCCOc3c(C)cc(-c4noc(C(F)(F)F)n4)cc3C)on2)no1 [Compound 50, 1,5-bis-[5-[3-[2,6-dimethyl-4-(5-trifluoromethyl-1,2,4-oxadiazolyl)phenoxy]-propyl]-isoxazolyl-3-methyloxy]-3-oxapentane] | 167 | 100 | >10000 | >143.03 | – |
| Cc1cc(-c2noc(C(F)(F)F)n2)cc(C)c1OCCCc1cc(COCCOCCOCCOCCOCc2ccc(COCCOCCOCCOCCOCc3cc(CCCOc4c(C)cc(-c5noc(C(F)(F)F)n5)cc4C)on3)cc2)no1 [Compound 56] | 6 | 22 | 3000 | 30.51 | >17.3 |
| CC(C)S(=O)(=O)n1c(N)nc2ccc(/C(=N/O)c3ccccc3)cc21 [Enviroxime] | 75.91 | – | 15 | 24.25 | 19.35 |
| CCOC(=O)c1ccc(OCCC2CCN(c3ccc(C)nn3)CC2)cc1 [Pirodavir, reference compound] | 555.74 | >300 | – | – | – |
| Cc1cc(CCCOc2c(C)cc(-c3noc(C(F)(F)F)n3)cc2C)on1 [Pleconaril, reference compound] | 500 | 10 | >10000 | >15057 | >178.89 |
| NC(=O)c1ncn([C@@H]2O[C@H](CO)[C@@H](O)[C@H]2O)n1 [Ribavirin] | 51.03 | – | 19 | – | – |
